# Data taken from US20230332126.
# Columns and labels:
# [1] = test system: SNAP23 substrate (SEQ ID NO: 24)
# [2] = test system: SNAP25 substrate (SEQ ID NO: 25)
# [3] = test system: full-length human recombinant SNAP23 protein (23 kDa)
substance,measurement,setting,value
wild type BoNT/A light chain (SEQ ID NO: 1),Km (SNAP23),[1],und.
same,Vmax (SNAP23),[1],und.
same,kcat (SNAP23),[1],und.
same,kcat/Km (SNAP23),[1],und.
same,Km (SNAP25),[2],3.4 µM
same,Vmax (SNAP25),[2],0.52 mP·µM·s^-1
same,kcat (SNAP25),[2],52 s⁻¹
same,kcat/Km (SNAP25),[2],1.5e+07 M⁻¹ s⁻¹
same,"in vitro cleavage, anti-SNAP23 Western blot (400 nM, 37° C., 1 hour)",[3],"The untreated, wtLC/A, and wtLC/E lanes provided negative controls"
